Data source: PubChem BioAssay AID624099 (ICCB-Longwood, 2012)
Test: 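Human genes that papillomavirus E2 requires to repress the HPV18 LCR promoter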 (primary screen). System: human C33A cervical carcinoma cells (HPV-negative) stably expressing BPV1 E2 and an HPV18 LCR luciferase reporter. Reagent: siRNA pool against human genes, 40 nM. Time to read-out: 72 h. Measured: 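HPV18 LCR reporter light per well, converted to plate-wise z-scores that exclude control wells, and averaged over triplicate plates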. Scale: mean z-score and z-score: higher = stronger reporter signal, weaker E2 silencing. Hit rule: 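Mean z ≥ 2 together with z ≥ 2 in two or more of the three replicates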.
Here is a random part of about 21,000 reagents tested. 497 of all reagents (2.4%) were called active. 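Higher z means weaker E2 silencing; only reporter increases were scored, and knock-downs that hurt cell survival may mask genuine repressor factors.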

MARCHF4 (GeneID 57574) | mean z-score: -0.14; z-score, replicate A: 0.22; z-score, replicate B: -0.62; z-score, replicate C: -0.01; outcome: inactive
ASNS (GeneID 440) | mean z-score: 0.44; z-score, replicate A: 0.64; z-score, replicate B: 0.13; z-score, replicate C: 0.56; outcome: inactive
LOC390564 (retired record) (GeneID 390564) | mean z-score: 0.35; z-score, replicate A: 0.3; z-score, replicate B: 0.28; z-score, replicate C: 0.48; outcome: inactive
ZNF426 (GeneID 79088) | mean z-score: 0.35; z-score, replicate A: 0.76; z-score, replicate B: 0; z-score, replicate C: 0.27; outcome: inactive
DSC1 (GeneID 1823) | mean z-score: 1.78; z-score, replicate A: 1.87; z-score, replicate B: 1.84; z-score, replicate C: 1.63; outcome: inactive
AKIRIN1 (GeneID 79647) | mean z-score: -0.19; z-score, replicate A: -0.01; z-score, replicate B: -0.2; z-score, replicate C: -0.36; outcome: inactive
COLGALT2 (GeneID 23127) | mean z-score: 0.93; z-score, replicate A: 0.99; z-score, replicate B: 0.76; z-score, replicate C: 1.03; outcome: inactive

Ordered by “mean z-score” (low to high): some entries from above
ZNF426 (GeneID 79088) | mean z-score: 0.35; z-score, replicate A: 0.76; z-score, replicate B: 0; z-score, replicate C: 0.27; outcome: inactive
DSC1 (GeneID 1823) | mean z-score: 1.78; z-score, replicate A: 1.87; z-score, replicate B: 1.84; z-score, replicate C: 1.63; outcome: inactive

Continued:
LINC01116 (GeneID 375295) | mean z-score: 0.43; z-score, replicate A: 0.2; z-score, replicate B: 0.66; z-score, replicate C: 0.43; outcome: inactive
PANK4 (GeneID 55229) | mean z-score: 0.64; z-score, replicate A: 0.33; z-score, replicate B: 1.01; z-score, replicate C: 0.59; outcome: inactive
TBCB (GeneID 1155) | mean z-score: -0.83; z-score, replicate A: -0.66; z-score, replicate B: -0.96; z-score, replicate C: -0.87; outcome: inactive
TAS2R16 (GeneID 50833) | mean z-score: 2.85; z-score, replicate A: 2.94; z-score, replicate B: 2.76; z-score, replicate C: 2.86; outcome: active
ORM2 (GeneID 5005) | mean z-score: -0.76; z-score, replicate A: -0.8; z-score, replicate B: -0.75; z-score, replicate C: -0.73; outcome: inactive
PPP1R16B (GeneID 26051) | mean z-score: 0.77; z-score, replicate A: 0.86; z-score, replicate B: 0.9; z-score, replicate C: 0.56; outcome: inactive
LOC400134 (retired record) (GeneID 400134) | mean z-score: 1.28; z-score, replicate A: 0.98; z-score, replicate B: 1.27; z-score, replicate C: 1.59; outcome: inactive
